According to PMC6675122 (2019):

T1: ATG8-4-V32I, C-terminal 6xHis (Solanum tuberosum (potato))
T1 chain: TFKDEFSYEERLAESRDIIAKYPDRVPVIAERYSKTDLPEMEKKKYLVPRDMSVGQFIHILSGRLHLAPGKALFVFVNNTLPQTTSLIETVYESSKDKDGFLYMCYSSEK

B1: PexRD54 full-length protein (purified) (natural protein)
chain: EGLAPSDQAYRPTMTGLKSRLNDPRPLSTATIATSSERFLRFDTVARDTAGNDEERVGPSWLAKVDGLMHKMVTSSLSAEEAQLKVWIQSQIHPRELFGVLSLGKRAAKLDDNPDFVQWLRLVKDFRANNGNQAFSDLDIYYLLLKTNSPEQLKLLFETLRHTPGMTKIGASMEKSLSGNWIRKALEQDTYPTIVYNTLRLKDAGTKLDDTPMFRQWLEYVEKYWNKNAGAFFGDTQMLTLFQKTMTEEEDIIKLVHMLRNNPGMKSHADKLERYLLLTSESSHKTMADVWLKARETPEEVFRILRLAEKQTAAADDNRMLNLWLRYTQTYRDKIDKNAFSDAEALQFFRKAKPLDFDWEIV

Experiments:
Experiment in all cases: ITC
[1] = molecular target: T1, ATG8-4-V32I, C-terminal 6xHis
[2] = molecular target: ATG8-3.2 (potato), residues Ser5-Asn114, C-terminal 6xHis (Solanum tuberosum (potato))
[3] = molecular target: ATG8-1.2 (potato), residues Ser5-Asn114, C-terminal 6xHis (Solanum tuberosum (potato))
[4] = molecular target: ATG8-1.1 (potato), residues Ser5-Asn114, C-terminal 6xHis (Solanum tuberosum (potato))
[5] = molecular target: ATG8-3.1 (potato), residues Ser5-Asn114, C-terminal 6xHis (Solanum tuberosum (potato))

| Binder | Kd [1] [nM] | Kd [2] [nM] | Kd [3] [nM] | Kd [4] [nM] | Kd [5] [nM] |
| --- | --- | --- | --- | --- | --- |
| B1 | 593 |  |  |  |  |
| KPLDFDWEIV [PexRD54 AIM peptide] | 92 |  |  |  |  |
| KPLDFDWEIV [m10] |  | 54 | 253 | 297 | 116 |
